Results of unrelated studies side by side (data: NIAID ChemDB).

Shared fields: growth or infection tests; organism: Human cytomegalovirus; read by: plaque count; read-out: EC50

Neighbouring rows are from separate reports. Blank or dashed fields: not listed here. ECn: concentration that inhibits the pathogen or its effect by n%.

| structure | strain or isolate | cell line | result |
|---|---|---|---|
| Nc1nc2c(ncn2COC(CO)CO)c(=O)[nH]1 | C8914-6 drug-resistant | HFF | 104 µM |
| Nc1ncnc2c1nnn2[C@@H]1C=C(CO)[C@@H](O)[C@H]1O | DAVIS | HEL | 0.7 µg/mL |
| Nc1nc2c(ncn2C[C@@H]2CC[C@@H](P(=O)(O)O)O2)c(=O)[nH]1 |  | MRC-5 | 0.11 µg/mL |
| CCCCCCc1cc2cn(C3CCCC3)c(=O)nc2o1 | AD169 | HEL | >50 µM |
| O[C@@H]1[C@H](O)[C@H](O)CO[C@H]1n1c(Br)nc2cc(Cl)c(Cl)cc21 | AD169 | MRC-5 | 1.4 µM |
| Nc1ccn(C[C@H]2COP(=O)(O)CO2)c(=O)n1 | Towne (ganciclovir- foscarnet-susceptible) | MRC-5 | 0.66 µM |
| CCN(CC)CC(=O)Nc1ccc(NC(=S)Nc2ccc(NC(C)=O)cc2)cc1Cl |  |  | >10 µg/mL |
| O[C@@H]1[C@H](O)[C@H](O)CO[C@H]1n1c(Br)nc2cc(Cl)c(Cl)cc21 | DAVIS | HFF | 1.9 µM |
| CC(=O)OCC(COC(C)=O)OCn1cnc2c(=O)[nH]c(N)nc21 |  | HFF | 0.54 µg/mL |
| Cc1c(Br)cc(Br)c2ncc(CSCc3ccc(Cl)cc3)n12 | DAVIS | HEL | >20 µg/mL |
| O=C(NCc1ccc(Cl)cc1)c1cn2c3c(cc(CN4CCOCC4)cc3c1=O)OC(c1cccnc1)C2 | Toledo | HFF | 5.8 µM |
| CC(=O)c1ccc(NC(=O)CN2C(=O)c3ccccc3S2(=O)=O)cc1 | AD169 | HEL | >100 µM |
| Cc1c(Br)cc(Br)c2ncc(CSC(C)c3cccs3)n12 | AD169 | HEL | >50 µg/mL |
| OC[C@@H]1O[C@@H](n2c(Br)nc3cc(Cl)c(Cl)cc32)[C@H](O)[C@H]1O |  | HFF | 21 µM |
| Cc1ccc2ncnc(Nc3ccc(Br)cc3)c2c1 | AD169 | HFF | >3 µM |
| Nc1nc2c(ncn2COC(CO)CO)c(=O)[nH]1 | Toledo | MRC-5 | 1.3 µM |
| C=C1[C@H](CO)[C@@H](O)C[C@@H]1n1cnc2c(=O)[nH]c(N)nc21 |  | WI-38 | 75 µM |
| CC(=O)OCC(CO)OCn1cnc2c(=O)[nH]c(N)nc21 |  | HFF | 1.2 µg/mL |
| Nc1ncnc2c1ncn2[C@H]1C[C@]12C[C@H]2CO | TOWNE | HFF | 20 µM |
| Nc1nc2c(ncn2[C@@H]2C[C@H](CO)[C@H]2CO)c(=O)[nH]1 | Towne (ganciclovir- foscarnet-susceptible) | MRC-5 | 6.8 µM |
| Nc1ccn(C[C@@H](CO)OCP(=O)(O)O)c(=O)n1 | AD169 | HEL | 1.4 µM |
| CCCCCCc1cc2cnc(OC3CCCCC3)nc2o1 | AD169 | HEL | >5 µM |
| Nc1nc(=O)n([C@@H]2O[C@H](CO)[C@@H](O)[C@@H]2F)cc1I | WF1 | FLOW 2002 | 0.84 µg/mL |
| CCCCCCCCCCc1cc2cn(C3CCCO3)c(=O)nc2o1 | DAVIS | HEL | >200 µM |
| Nc1ccn([C@@H]2O[C@H](CO)[C@@H](O)[C@@H]2O)c(=O)n1 | WF1 | FLOW 2002 | 0.02 µg/mL |
| CC(=O)c1c(-c2ccc(OC(F)(F)F)cc2)cc2ccccn12 | AD169 | MRC-5 | >100 µM |
| Cc1c(Br)cc(Br)c2ncc(CSCc3ccccc3Cl)n12 | AD169 | HEL | >5 µg/mL |
| CCCCCCCCCCCCCCCCOCCCOP(=O)(O)OCC(CO)OCn1cnc2c(=O)[nH]c(N)nc21 | AD169 | MRC-5 | 6.8 µM |
| Nc1nc2c(ncn2C=C2CC2CO)c(=O)[nH]1 | VR6189 (ganciclovir-susceptible) |  | 2 µM |
| Cc1c(Br)cc(Br)c2ncc(CSCCc3ccccc3)n12 | AD169 | HEL | 1.1 µg/mL |
| CCCCCCCc1cc2cn(CCC(C)C)c(=O)nc2o1 | DAVIS | HEL | 50 µM |
| CCOP(=O)([O-])CCCOCn1cnc2c(=O)[nH]c(N)nc21 | C8704 | MRC-5 | 82 µg/mL |
| Nc1ncnc2c1ncn2[C@H]1C[C@@]12C[C@@H]2CO | TOWNE | HFF | >100 µM |
| Cc1c(Br)cc(Br)c2ncc(CSCc3ccc(Cl)c(Cl)c3)n12 | AD169 | HEL | >5 µg/mL |
| Nc1nc2c(ncn2[C@H]2C[C@]23C[C@H]3CO)c(=O)[nH]1 | TOWNE | HFF | >100 µM |
| Fc1ccccc1-c1cc2ccccn2c1 | AD169 | MRC-5 | >10 µM |
| Cn1cc(C(=O)NCc2ccc(Cl)cc2)c(=O)c2cc(CN3CCOCC3)ccc21 | DAVIS | HFF | 5.5 µM |
| Nc1nc2c(ncn2COC(CO)CO)c(=O)[nH]1 | C8303 | MRC-5 | 0.8 µM |
| Cc1c(Br)cc(Br)c2ncc(CSCc3ccc(F)cc3)n12 | AD169 | HEL | >5 µg/mL |
| Nc1nc(N)c2ncn(C[C@H]3CC[C@@H](P(=O)(O)O)O3)c2n1 |  | WI-38 | >50 µg/mL |
| CC(C)Nc1nc2cc(Cl)c(Cl)cc2n1[C@@H]1O[C@@H](CO)[C@H](O)[C@H]1O |  | HFF | >100 µM |
| CC(=O)c1c(-c2ccc(Cl)c(Cl)c2)cc2ccccn12 | AD169 | MRC-5 | >100 µM |
| Nc1nc2c(ncn2COC(CO)CO)c(=O)[nH]1 | Towne (ganciclovir- foscarnet-susceptible) | MRC-5 | 4.94 µM |
| Nc1ccn([C@@H]2O[C@@H](CO)[C@@H](O)[C@@H]2O)c(=O)n1 | WF1 | FLOW 2002 | 40 µg/mL |
| Nc1nc(N)c2ncn(C[C@H]3CC[C@H](P(=O)(O)O)O3)c2n1 |  | WI-38 | 100 µg/mL |
| Cc1ccc(S(=O)(=O)NNC(=O)c2ccccc2S(=O)(=O)NC(C)C)cc1 | DAVIS | HEL | >100 µM |
| Nc1ncnc2c1ncn2[C@H]1C[C@]12C[C@@H]2CO | TOWNE | HFF | 28 µM |
| CC(=O)Nc1ccc(NC(=S)Nc2cc(Cl)c(O)c(Cl)c2C)cc1 |  |  | 50 µg/mL |
| OC[C@H]1O[C@@H](c2ccccc2)[C@H](O)[C@@H]1O | AD169 | HEL | >50 µg/mL |
| CCCCc1cc2cn(CCC(C)C)c(=O)nc2o1 | AD169 | HEL | >50 µM |
| Nc1ccn([C@H]2O[C@@H](CO)[C@H](O)[C@H]2F)c(=O)n1 | WF1 | FLOW 2002 | >100 µg/mL |
| Nc1ncnc2c1ncn2C=C1CC1CO | TOWNE | KB | 2 µM |
| Cc1c(Br)cc(Br)c2ncc(CSCc3cccs3)n12 | AD169 | HEL | >50 µg/mL |
| NC1=NCCN1CC(=O)O | C8704 (ganciclovir-resistant) | MRC-5 | 10300 µM |
| CC(=O)n1c(Cl)c([C@@H]2O[C@H](CO)[C@@H](O)[C@H]2O)c2cc(Cl)c(Cl)cc21 |  | HFF | >100 µM |
| C[C@H]1O[C@@H](n2c(Cl)nc3cc(Cl)c(Cl)cc32)[C@H](O)C1O | Isolate C4 mutations D344E + Q204R | HFF | 13 µM |
| CO[C@@H]1[C@H](O)[C@@H](CO)O[C@H]1c1ccccc1 | DAVID | HEL | >50 µg/mL |
| Cc1c(Br)cc(Br)c2ncc(CSCc3ccccc3)n12 | AD169 | HEL | >50 µg/mL |
| COc1ccc(OC)c(-c2cc3ccccn3c2)c1 | AD169 | MRC-5 | >100 µM |
| CCOP(=O)([O-])CCC(CO)OCn1cnc2c(=O)[nH]c(N)nc21 | AD169 | MRC-5 | 2.5 µg/mL |
| Brc1ccc(Nc2ncnc3ccccc23)cc1 | AD169 | HFF | >3 µM |
| Cn1c(Cl)c([C@@H]2O[C@H](CO)[C@@H](O)[C@H]2O)c2cc(Cl)c(Cl)cc21 |  | HFF | >100 µM |
| CSc1nc2cnsc2n1[C@@H]1O[C@H](CO)[C@@H](O)[C@@H]1O | TOWNE | HFF | 100 µM |
| Brc1cccc(Nc2ncnc3ccccc23)c1 | AD169 | HFF | <3 µM |
| CCCCCCc1cc2cn(C3CCCO3)c(=O)nc2o1 | AD169 | HEL | >50 µM |
| Nc1nc2c(ncn2CCC(CO)CO)c(=O)[nH]1 | AD169 | MRC-5 | 45 µg/mL |
| CC(C)NS(=O)(=O)c1ccccc1C(=O)N/N=C/c1ccc(-c2cccs2)cc1 | AD169 | HEL | >100 µM |
| CC(C)OC(=O)c1c(C(C)C)cc2ccccn12 | AD169 | MRC-5 | >100 µM |
| CNc1cccc2c(S(=O)(=O)Nc3ccc(NC(=O)C(C)(C)CO)cc3)cccc12 | 36 isolates |  | 1.11 µM |
| Cn1cc(C(=O)NCc2ccc(Cl)cc2)c(=O)c2cc(CN3CCOCC3)ccc21 | A | HFF | 1.1 µM |
| Nc1nc2c(ncn2COC(CO)CO)c(=O)[nH]1 |  | HFF | 0.16 µg/mL |
| Nc1nc2c(ncn2C[C@H]2CC[C@@H](P(=O)(O)O)O2)c(=O)[nH]1 |  | WI-38 | 50 µg/mL |
| O=C(NCc1ccc(Cl)cc1)c1c[nH]c2ccc(CCCO)cc2c1=O | DAVIS |  | 1 µM |
| OC[C@H]1OC(c2c(-c3ccccc3)cc3c(Cl)cc(C(F)(F)F)cn23)[C@H](O)[C@@H]1O | AD169 | MRC-5 | >20 µM |
| Cc1cn([C@H]2C[C@@H](N=[N+]=[N-])[C@@H](CO)O2)c(=O)[nH]c1=O | AD169 |  | >100 µM |
| C=CCO[C@@H]1[C@@H](OCC=C)[C@H](Cc2ccccc2)O[C@@H]2CO[C@@H](c3ccccc3)O[C@@H]12 | AD169 | HEL | 1.1 µg/mL |
| Nc1nc2c(ncn2COC(CO)CO)c(=O)[nH]1 | TOWNE | HFF | 1.5 µM |
| Nc1ncnc2c1ncn2[C@H]1C[C@@]12C[C@H]2CO | TOWNE | HFF | >100 µM |
| OC[C@H]1O[C@@H](n2c(Br)nc3cc(Cl)c(Cl)cc32)[C@H](O)[C@@H]1O | C8914-6 drug-resistant | HFF | 3.3 µM |
| Nc1nc2c(ncn2CC(CO)OCP(=O)(O)O)c(=O)[nH]1 |  | WI-38 | 0.4 µM |
| C=C1[C@H](n2ccc(N)nc2=O)O[C@H](CO)[C@H]1O | WF1 | FLOW 2002 | 0.04 µg/mL |
| CCCCCCc1cc2cn(CCC(C)C)c(=O)nc2o1 | DAVIS | HEL | >200 µM |
| c1ccc(-c2cc3c4ccccc4ccn3c2)cc1 | AD169 | MRC-5 | >100 µM |
| Cc1c(Br)cc(Br)c2ncc(CSCc3ccc(Cl)cc3Cl)n12 | AD169 | HEL | >5 µg/mL |
| O=C(O)c1cccn2cc(-c3ccccc3)cc12 | AD169 | MRC-5 | >100 µM |
| Nc1n[nH]c(=O)c2c1ncn2[C@@H]1O[C@H](CO)[C@@H](O)[C@H]1O |  | HFF | 29 µM |

Repeating the first 5 entries:

structure	strain or isolate	cell line	result
Nc1nc2c(ncn2COC(CO)CO)c(=O)[nH]1	C8914-6 drug-resistant	HFF	104 µM
Nc1ncnc2c1nnn2[C@@H]1C=C(CO)[C@@H](O)[C@H]1O	DAVIS	HEL	0.7 µg/mL
Nc1nc2c(ncn2C[C@@H]2CC[C@@H](P(=O)(O)O)O2)c(=O)[nH]1		MRC-5	0.11 µg/mL
CCCCCCc1cc2cn(C3CCCC3)c(=O)nc2o1	AD169	HEL	>50 µM
O[C@@H]1[C@H](O)[C@H](O)CO[C@H]1n1c(Br)nc2cc(Cl)c(Cl)cc21	AD169	MRC-5	1.4 µM